Results of unrelated studies side by side (data: NIAID ChemDB).

All rows: growth or infection tests; species: Staphylococcus aureus

Two numbers with a dash give a range or band.

compound	strain or isolate	measure	method	tested at	result
N[C@@H](C(=O)N[C@@H]1C(=O)N2C(C(=O)O)=C(Cl)CS[C@H]12)c1ccccc1	30 strains	MIC50	-	-	1 µg/mL
COc1cc2oc(=O)ccc2cc1CC(O)C(C)(C)O	-	zone	agar diffusion	250 µg/disc	10 mm
NC(=O)c1cc(F)ccc1SSc1ccc(F)cc1C(N)=O	ATCC 6538	MIC	-	-	7.5 µg/mL
Cc1c(N2CC3=CCCN[C@H]3C2)c(F)cn2c(=O)c(C(=O)O)cc(C3CC3)c12	285	MIC	-	-	0.013 µg/mL
NC1CCN(c2nc3c(cc2F)c(=O)c(C(=O)O)cn3-c2ccc(F)cc2F)C1	25 strains (methicillin-susceptible)	MIC90	-	-	≤0.12 µg/mL
Cc1c(N2CCC3(CCC[C@@H]3N)C2)c(F)cn2c(=O)c(C(=O)O)cc(C3CC3)c12	NCTC10649	MIC	-	-	0.02 µg/mL
CCn1cc(C(=O)O)c(=O)c2cc(F)c(N3CCNCC3)cc21	30 strains	MIC50	-	-	2 µg/mL
COc1c(N2C[C@@H]3CCCN[C@@H]3C2)c(F)cc2c(=O)c(C(=O)O)cn(C3CC3)c12	24 strains (ofloxacin-susceptible)	MIC90	-	-	0.12 µg/mL
CC(=O)NC[C@H]1CN(c2ccc(N3CCOCC3)c(F)c2)C(=O)O1	Oxacillin-resistant	MIC50	-	-	1–4 µg/mL
C[C@@H]1CN(c2c(F)c(N)c3c(=O)c(C(=O)O)cn(C4CC4)c3c2F)C[C@H](C)N1	25 strains (ofloxacin-resistant)	MIC90	-	-	32 µg/mL
CCCCNC(=O)c1ccc(C(F)(F)F)cc1SSc1cc(C(F)(F)F)ccc1C(=O)NCCCC	ATCC 6538	MIC	-	-	20 µg/mL
NC1CCN(c2c(F)cc3c(=O)c(C(=O)O)cn(C4CC4)c3c2F)C1	NCTC10649	MIC	-	-	0.1 µg/mL
CC1COc2c(N3CCN(C)CC3)c(F)cc3c(=O)c(C(=O)O)cn1c23	20 strains (oxacillin-susceptible)	MIC90	-	-	0.25 µg/mL
CCCCn1sc2cc(C(F)(F)F)ccc2c1=O	ATCC 6538	MIC	-	-	5 µg/mL
CC[C@H]1OC(=O)[C@H](C)[C@@H](O[C@H]2C[C@@](C)(OC)[C@@H](O)[C@H](C)O2)[C@H](C)[C@@H](O[C@@H]2O[C@H](C)C[C@H](N(C)C)[C@H]2O)[C@](C)(OC)C[C@@H](C)C(=O)[C@H](C)[C@@H](O)[C@]1(C)O	16 strains (methicillin- quinolone-resistant)	MIC90	-	-	>32 µg/mL
Cc1c(N2Cc3cccnc3C2)c(F)cn2c(=O)c(C(=O)O)cc(C3CC3)c12	1775 (ciprofloxacin-resistant)	MIC	-	-	0.2 µg/mL
CN(C)[C@@H]1C(=O)C(C(N)=O)=C(O)[C@@]2(O)C(=O)C3=C(O)c4c(O)c(NC(=O)CNC(F)(F)F)cc(F)c4C[C@H]3C[C@@H]12	101-29213	EC50	agar diffusion	-	1 µg/mL
CCCCNC(=O)c1cccc(F)c1SSc1c(F)cccc1C(=O)NCCCC	ATCC 6538	MIC	-	-	20 µg/mL
N[C@@H]1CN(c2c(F)cc3c(=O)c(C(=O)O)cn([C@@H]4C[C@@H]4F)c3c2Cl)CC12CC2	24 strains (ofloxacin-susceptible)	MIC90	-	-	0.06 µg/mL
CO/N=C(/C(=O)N[C@@H]1C(=O)N2C(C(=O)O)=C(COC(N)=O)CS[C@H]12)c1ccco1	30 strains	MIC90	-	-	2 µg/mL
CO[C@H]1/C=C/O[C@@]2(C)Oc3c(C)c(O)c4c(O)c(c(/C=N/N5CCN(C)CC5)c(O)c4c3C2=O)NC(=O)/C(C)=C\C=C\[C@H](C)[C@H](O)[C@@H](C)[C@@H](O)[C@@H](C)[C@H](OC(C)=O)[C@@H]1C	SMITH	MIC	-	-	0.0078 µg/mL
C[C@@H](O)[C@H]1C(=O)N2C(C(=O)O)=C(SCCN=CN)C[C@H]12	25 strains (ofloxacin-resistant)	MIC90	-	-	128 µg/mL

For reference, 2 entries again:

compound,strain or isolate,measure,method,tested at,result
N[C@@H]1CN(c2c(F)cc3c(=O)c(C(=O)O)cn([C@@H]4C[C@@H]4F)c3c2Cl)CC12CC2,24 strains (ofloxacin-susceptible),MIC90,-,-,0.06 µg/mL
CO[C@H]1/C=C/O[C@@]2(C)Oc3c(C)c(O)c4c(O)c(c(/C=N/N5CCN(C)CC5)c(O)c4c3C2=O)NC(=O)/C(C)=C\C=C\[C@H](C)[C@H](O)[C@@H](C)[C@@H](O)[C@@H](C)[C@H](OC(C)=O)[C@@H]1C,SMITH,MIC,-,-,0.0078 µg/mL

Blank or dashed fields: not listed here. Neighbouring rows are from separate reports. Zone: diameter of growth inhibition. A number after MIC or MFC names an inhibition level or a share of isolates. ECn: concentration that inhibits the pathogen or its effect by n%.